Values of other authors in paper PMC9054008 (Science Advances, 2022).

Protein sequences, listed by entry. Tags and fused reporters are not part of them.
UniProt P14434, whole entry: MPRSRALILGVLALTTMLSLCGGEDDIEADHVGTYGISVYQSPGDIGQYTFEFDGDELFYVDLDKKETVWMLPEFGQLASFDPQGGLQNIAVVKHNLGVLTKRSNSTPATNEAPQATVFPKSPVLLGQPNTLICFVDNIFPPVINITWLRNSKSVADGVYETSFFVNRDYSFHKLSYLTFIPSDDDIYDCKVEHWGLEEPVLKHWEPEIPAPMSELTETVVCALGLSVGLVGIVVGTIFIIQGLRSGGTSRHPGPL
UniProt P14483, whole entry: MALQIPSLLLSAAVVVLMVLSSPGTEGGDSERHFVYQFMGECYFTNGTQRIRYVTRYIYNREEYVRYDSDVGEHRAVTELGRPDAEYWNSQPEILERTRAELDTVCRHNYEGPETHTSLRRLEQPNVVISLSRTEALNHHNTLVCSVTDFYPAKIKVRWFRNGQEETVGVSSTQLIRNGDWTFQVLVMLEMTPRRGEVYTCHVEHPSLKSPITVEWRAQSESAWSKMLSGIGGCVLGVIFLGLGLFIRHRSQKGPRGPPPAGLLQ

biological target: I-Ab (Mus musculus, UniProt P14434+P14483); details: cited from earlier work

Sequence	pIC50
DQEYHRLIHSLSKTS	6.02
ELLDQSDVKEPGVSR	5.00
GLVSQLSVLSSITNI	5.28
IEYAKLYVLSPILAE	6.55
IIKYNRRLAKSIICE	5.08
LKAEAQMSIQLINKA	5.04
LMIAHRVLLSSILES	5.15
SISKRAYMATTILEM	7.50
TSAFNKKTFDHTLMS	5.00
VSLIAIIKGIVNLYK	5.11
VVPDGYKLTGNVLIL	5.19
YDMFNLLLMKPLGIE	5.17

pIC50: −log10 of the molar value.
